Test: Chlorine blow off after TCM washdown / direct application

**Q.** Which results are given for trichloromelamine [TCM]?
**A.** chlorine blowoff (Example 5: 200 ppm TCM washdown): No chlorine blow off was detected; chlorine blowoff (Example 6: initial washdown or subsequent direct applications): No chlorine blowoff was detected
